Compound potency records, mixed from different reports. Data source: NIAID ChemDB in PubChem.

Shared fields: target-level tests; organism: Hepatitis C virus; protein: Nonstructural protein 5B

Lines come from different laboratories, so protocols vary. ICn is the concentration giving n% inhibition. Percent inhibition refers to the dose given; in toxicity tests it is the harm to the cells. a–b is a range or a potency band.

CCN(c1cc2oc(-c3ccc(F)cc3)c(C(=O)NC)c2cc1OC)S(C)(=O)=O ; read-out: IC50 ; value: ≤0.5 µM
CC(C)CCC1(C2CCCC2)CC(O)=CC(=O)O1 ; read-out: IC50 ; value: >50 µM
CCOC(=O)C1=CN(N2CCN(c3nc(Nc4ccc5cn[nH]c5c4)nc(OC)n3)CC2)C(SC)N=C1 ; read-out: inhibition ; tested at: 0.1 µg/mL ; value: 0%
Cc1noc(C)c1COc1ccc(CCC2(C3CCCC3)CC(O)=CC(=O)O2)cc1 ; read-out: IC50 ; value: 10–50 µM
CNC(=O)c1c(-c2ccc(F)cc2)oc2cc(NCCOC)c(OC(C)C)cc12 ; read-out: IC50 ; value: ≤0.5 µM
COc1ccc(CCC2(C3CCCC3)CC(=O)CC(=O)O2)cc1C ; read-out: IC50 ; value: 1–10 µM
CNC(=O)c1c(-c2ccc(F)cc2)oc2cc(N(C)S(C)(=O)=O)c(OCc3ccc(C#N)cc3)cc12 ; read-out: IC50 ; value: ≤0.5 µM
Cc1ccc(-c2ccc(C=C3SC(=S)N(CCC(=O)O)C3=O)o2)s1 ; read-out: IC50 ; value: ≤1 µM
CNC(=O)c1c(-c2ccc(F)cc2)oc2cc(NC(C)(C)C)c(OC(C)C)cc12 ; read-out: IC50 ; value: ≤0.5 µM
COc1nc(Nc2ccc3[nH]ncc3c2)nc(N2CCOCC2)n1 ; read-out: inhibition ; tested at: 10 µg/mL ; value: 72%
COc1cc(CCC2(C3CCCC3)CC(O)=CC(=O)O2)ccc1OCc1ccccc1 ; read-out: IC50 ; value: 1–10 µM
CNC(=O)c1c(-c2ccccc2)oc2ccc(C(C)C)cc12 ; read-out: IC50 ; value: ≤0.5 µM
O=C(O)CCN1C(=O)C(=Cc2ccc(-c3ccc(Br)cc3)o2)SC1=S ; read-out: IC50 ; value: ≤1 µM
CNC(=O)c1c(-c2ccc(F)cc2)oc2cc(N(C)S(C)(=O)=O)c(OCc3nccn3Cc3ccccc3)cc12 ; read-out: IC50 ; value: ≤0.5 µM
O=C(O)c1ccc(N2C(=O)C(=Cc3ccc(-c4cc(Cl)ccc4Cl)o3)SC2=S)cc1 ; read-out: IC50 ; value: ≤1 µM
COc1nc(Nc2ccc3[nH]ncc3c2)nc(N2CCC(O)CC2)n1 ; read-out: inhibition ; tested at: 1 µg/mL ; value: 12%
COc1ccc(CCC2(C3CCCC3)CC(O)=C(Sc3nc(N)c4[nH]cnc4n3)C(=O)O2)cc1 ; read-out: IC50 ; value: <1 µM
CNC(=O)c1c(-c2ccc(F)cc2)oc2cc(N(C)S(C)(=O)=O)c(O)cc12 ; read-out: IC50 ; value: ≤0.5 µM
COc1nc(NCCN2CCOCC2)nc(Nc2ccc3[nH]ncc3c2)n1 ; read-out: inhibition ; tested at: 10 µg/mL ; value: 33%
CNC(=O)c1c(-c2ccc(F)cc2)oc2cc(N(CC(C)O)S(C)(=O)=O)c(OC(C)C)cc12 ; read-out: IC50 ; value: ≤0.5 µM
O=C1NC(=S)SC1=Cc1ccc(-c2cccs2)s1 ; read-out: IC50 ; value: ≤1 µM
COc1nc(Nc2ccc3cn[nH]c3c2)nc(NN2CCN(C)CC2)n1 ; read-out: inhibition ; tested at: 0.1 µg/mL ; value: 30%
Cc1cc(C)cc(-c2ccc(C=C3SC(=S)N(c4ccc(C(=O)O)cc4)C3=O)o2)c1 ; read-out: IC50 ; value: ≤1 µM
COc1nc(Nc2ccc3cn[nH]c3c2)nc(N2CCCC2)n1 ; read-out: inhibition ; tested at: 0.1 µg/mL ; value: 7%
COc1ccc(CCC2(C3CCCC3)CC(=O)CC(=O)O2)c(OC)c1 ; read-out: IC50 ; value: 10–50 µM

3 of the rows above, restated:

CNC(=O)c1c(-c2ccc(F)cc2)oc2cc(N(CC(C)O)S(C)(=O)=O)c(OC(C)C)cc12 ; read-out: IC50 ; value: ≤0.5 µM
CNC(=O)c1c(-c2ccc(F)cc2)oc2cc(NCCOC)c(OC(C)C)cc12 ; read-out: IC50 ; value: ≤0.5 µM
CC(C)CCC1(C2CCCC2)CC(O)=CC(=O)O1 ; read-out: IC50 ; value: >50 µM